Pooled drug test results. Numbers come from NIAID ChemDB, via PubChem.

Shared fields: whole-cell or culture tests; organism: HIV-1; read-out: EC50

ECn: concentration that inhibits the pathogen or its effect by n%. Two numbers with a dash give a range or band. An empty or dashed field is not shown. Conditions beyond the fields shown may differ between rows.

compound,strain or isolate,changes,cells,method,result
Cc1cc(OCCCS(N)(=O)=O)ccc1NC(=O)COc1ccc(Cl)cc1C(=O)c1cc(F)cc(C(F)(F)F)c1,HXB2,RT-V106I,HeLa + HELA CD4+,β-galactosidase,<0.01 µM
NC(=O)c1cc(-c2cccnc2[C@H](Cc2cc(F)cc(F)c2)NC(=O)NS(=O)(=O)N[C@@H](Cc2cc(F)cc(F)c2)c2ncccc2-c2ccc(F)c(C(N)=O)c2)ccc1F,NL4-3,-,MT-2,luciferase,0.15 µM
Cc1cc2[nH]cnc2cc1NC(=O)COc1ccc(Cl)cc1C(=O)c1cc(F)cc(C(F)(F)F)c1,HXB2,RT-Y188C,HeLa + HELA CD4+,β-galactosidase,<0.01 µM
N#CC1C=Cc2c(ccc3ccccc23)N1C(=O)c1ccco1,IIIB,RT-P236L,MOLT-3,syncytia,50 µM
Cc1cc(C#N)cc(C(=O)c2cc(Cl)ccc2OCC(=O)Nc2cnc(S(N)(=O)=O)cc2C)c1,HXB2,RT-K103N V108I,HeLa + HELA CD4+,β-galactosidase,<0.01 µM
COc1ccc(N(C)C(=O)[C@H](Cc2ccccc2)NC(=O)CS(=O)(=O)N[C@@H](Cc2ccccc2)C(=O)N(C)c2ccc(OC)cc2)cc1,NL4-3,-,MT-2,luciferase,1.09 µM
O=C(NCc1c(F)cc(F)cc1F)c1cn2c(c(O)c1=O)C(=O)N1[C@H]3CC[C@H](C3)O[C@@H]1C2,NL4-3,T97A E138K G140S Q148H,CEM-GXR,GFP,0.0126 µM
C=CCOC(C(=O)O)c1c(C)nc2ccc(Br)cc2c1-c1ccc(Cl)cc1,-,-,C8166,luciferase / reporter gene,<20 µM
CC(C)=CCN1CC(C)Cn2c(=S)[nH]c3cccc1c32,A17,RT-K103N Y181C,CEM(SS) + CEM-SS,cytopathic effect / XTT,>26.2 µM
Cc1cc(S(N)(=O)=O)ccc1NC(=O)COc1ccc(Cl)cc1C(=O)c1cc(F)cc(C(F)(F)F)c1,HXB2,RT-P225H,HeLa + HELA CD4+,β-galactosidase,<0.01 µM
COc1ccc(N(C)C(=O)[C@H](Cc2cc(F)cc(F)c2)NC(=O)CN2c3ccccc3N(CC(=O)N[C@@H](Cc3cc(F)cc(F)c3)C(=O)N(C)c3ccc(OC)cc3)S2(=O)=O)cc1,NL4-3,-,MT-2,luciferase,0.01 µM
Cc1cc(Cl)ccc1-c1c(C(OC(C)C)C(=O)O)c(C)nc2ccc(Cl)cc12,-,-,C8166,luciferase / reporter gene,<20 µM
CCOC(=O)N1c2ccc3ccccc3c2C=CC1C#N,IIIB,-,MOLT-3,syncytia,18.8 µM
Cc1ccc(-c2c(C(OCc3cc(C)on3)C(=O)O)c(C)nc3ccc(Br)cc23)cc1,-,-,C8166,luciferase / reporter gene,<20 µM
CC1CC(C)CN(S(=O)(=O)c2ccccc2[N+](=O)[O-])C1,O-MVP5180,-,HeLa,GFP / fluorescence,0.37 µM
Cc1cc(S(N)(=O)=O)ccc1NC(=O)COc1ccc(Cl)cc1C(=O)c1cc(F)cc(F)c1,HXB2,RT-V106A,HeLa + HELA CD4+,β-galactosidase,0.011–0.1 µM
CCCC(C(=O)O)c1c(C)nc2ccccc2c1-c1ccc(C)cc1,-,-,C8166,luciferase / reporter gene,<20 µM
Nc1ccn([C@H]2S[C@@H](CO)C=C2F)c(=O)n1,LAI,-,PBMC,RT activity,<11.9 µM
N#CC1C=Cc2ccccc2N1C(=O)c1ccc(Cl)cc1,IIIB,-,MOLT-3,syncytia,5.5 µM
CCN(CC)CCCC(C)Nc1ccnc2cc(Cl)ccc12,-,-,U-937,p24,<100 µM
Cc1cc(C#N)cc(C(=O)c2cc(Cl)ccc2OCC(=O)Nc2ccc(OCCCN3CC=CC3)cc2C)c1,HXB2,RT-L100I,HeLa + HELA CD4+,β-galactosidase,<0.01 µM
CC/C=C(\C(=O)O)c1c(C)nc2ccc(Br)cc2c1-c1ccc(Cl)cc1,-,-,C8166,luciferase / reporter gene,<20 µM
CC(=O)c1c(C)nc(-c2ccccc2)nc1NC(=O)c1ccccc1,10076-4,-,HeLa,GFP / fluorescence,0.1 µM
Cc1cc(C#N)cc(C(=O)c2cc(Cl)ccc2OCC(=O)Nc2ccc(S(N)(=O)=O)nc2C)c1,HXB2,RT-K103N V108I,HeLa + HELA CD4+,β-galactosidase,<0.01 µM
Cc1nc2ccc(Cl)cc2c(-c2ccc3ncccc3c2)c1C(OC(C)C)C(=O)O,-,-,C8166,luciferase / reporter gene,<20 µM
C=C(C)C1CC[C@]2(C(=O)O)CC[C@]3(C)C(CCC4[C@@]5(C)C[C@@H](O)[C@H](C(=O)[O-])C(C)(C)C5CC[C@]43C)C12,MC99 (Tat/Rev defective),-,1A2,syncytia,6 µg/mL
Nc1nc2c(ncn2[C@@H]2C=C[C@H](CO)C2)c(=O)[nH]1,IIIB,-,MT-2C + MT-2,cytopathic effect / XTT,>50 µg/mL
C=CCCN(C(=O)[C@H](Cc1cc(F)cc(F)c1)NC(=O)NS(=O)(=O)N[C@@H](Cc1cc(F)cc(F)c1)C(=O)N(CCC=C)c1ccc(OC)cc1)c1ccc(OC)cc1,NL4-3,-,MT-2,luciferase,0.73 µM
C=C(C)C1CC[C@@H]2CC[C@]3(C)C(CCC4[C@@]5(C)CC[C@H](O)C(C)(C)C5CC[C@]43C)C12,MC99 (Tat/Rev defective),-,1A2,syncytia,6.21 µg/mL
COc1cc2c(cc1Cc1cccc(Cl)c1F)c(=O)c(C(=O)O)cn2[C@H](CO)C(C)C,NL4-3,T97A E138K G140S Q148H,CEM-GXR,GFP,1 µM
COc1cnc(-n2cnc(C)n2)c2[nH]cc(C(=O)C(=O)N3CCN(C(=O)c4ccccc4)CC3)c12,NL4-3,M426L,U-87,luciferase,0.0442 µM
CN(C(=O)[C@H](Cc1cc(F)cc(F)c1)NC(=O)N[C@@H](Cc1cc(F)cc(F)c1)C(=O)N(C)c1ccc2scnc2c1)c1ccc2scnc2c1,NL4-3,-,MT-2,luciferase,0.52 µM

Repeating the first 2 entries:

compound,strain or isolate,changes,cells,method,result
Cc1cc(OCCCS(N)(=O)=O)ccc1NC(=O)COc1ccc(Cl)cc1C(=O)c1cc(F)cc(C(F)(F)F)c1,HXB2,RT-V106I,HeLa + HELA CD4+,β-galactosidase,<0.01 µM
NC(=O)c1cc(-c2cccnc2[C@H](Cc2cc(F)cc(F)c2)NC(=O)NS(=O)(=O)N[C@@H](Cc2cc(F)cc(F)c2)c2ncccc2-c2ccc(F)c(C(N)=O)c2)ccc1F,NL4-3,-,MT-2,luciferase,0.15 µM